The nature of the series: Blood human albumin concentration in HBV-infected PXB mice. It is filed as in vivo.

Consider `CCCCC1CN(c2ccccc2)c2cc(SC)c(O/C=C(\F)C(=O)O)cc2S(=O)(=O)N1C` (stereo not shown) [Compound 1, (Z)-3-((3-butyl-2-methyl-7-(methylthio)-1,1-dioxido-5-phenyl-2,3,4,5-tetrahydro-1,2,5-benzothiadiazepin-8-yl)oxy)-2-fluoroacrylic acid], for which the “blood concentration of human albumin” value reads like this: (10 mg/kg, Day 14) 10.8 ± 0.9 mg/mL; (10 mg/kg, baseline) 10.8 ± 1.0 mg/mL; (30 mg/kg, Day 14) 11.3 ± 1.2 mg/mL; (30 mg/kg, baseline) 10.6 ± 1.5 mg/mL.

The record behind these values is patent US20230398125A1, “TREATING HEPATITIS” (Albireo AB, priority 2022, published 2023).
